{"source": "paper PMC10506467", "about": "“Structural and functional studies of PCNA from African swine fever virus” (Journal of Virology, 2023)", "proteins": {"B1": {"name": "African swine fever virus proliferating cell nuclear antigen (natural protein)", "chain": "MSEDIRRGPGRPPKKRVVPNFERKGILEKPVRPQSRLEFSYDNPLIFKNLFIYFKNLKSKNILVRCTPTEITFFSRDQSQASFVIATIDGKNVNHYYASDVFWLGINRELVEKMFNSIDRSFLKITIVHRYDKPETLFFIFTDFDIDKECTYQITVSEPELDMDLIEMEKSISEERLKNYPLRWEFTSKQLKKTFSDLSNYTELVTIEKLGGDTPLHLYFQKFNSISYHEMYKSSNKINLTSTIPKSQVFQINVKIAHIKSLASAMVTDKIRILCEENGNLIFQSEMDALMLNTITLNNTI"}}, "molecular_target": "the molecule itself", "assay": "SEC", "data": [{"protein": "B1", "values": [{"measurement": "stoichiometry N", "value": 3}]}]}
